{"source": "patent US20230277680A1", "about": "“CONJUGATE OF A SINGLE DOMAIN ANTIBODY, A SAPONIN AND AN EFFECTOR MOLECULE, PHARMACEUTICAL COMPOSITION COMPRISING THE SAME, THERAPEUTIC USE OF SAID PHARMACEUTICAL COMPOSITION” (SAPREME TECHNOLOGIES B.V., priority 2020, published 2023)", "tested_on": "A431 tumor", "assay": "A431 xenograph mouse tumor model, tumor volume", "assay_type": "in vivo", "conditions": "second experiment: 25 mg/kg cetuximab-(Cys-L-SO1861)^4 i.p. + 0.03 mg/kg toxin conjugate i.v., day 9, 14, then weekly; cetuximab = positive control", "method": "The conjugate was tested in a A431 (EGFR^++) xenograph mouse tumor model for EGFR tumor targeted cell killing as illustrated in FIG. 1J. Dosings started at day 12 when tumors reached ˜150 mm^3 in size and tumor volume was determined after every dosing.\nFemale Balb/c nude mice were injected subcutaneously with a suspension of human A431 tumor cells. Under the skin of the mice, a human epidermal carcinoma developed in the xenograft animal tumor model. After injection of the tumor cells, the xenograft tumor was allowed to develop to a size of approximately 170-180 mm^3. The A431 tumor cells have the following characteristics: high EGFR expressors, medium CD71 expressors, low HER2 expressors.\nIn Table 8A, the results of the treatment of control mice and tumor-bearing mice are presented. Tumor-bearing mice were treated with the indicated antibodies directed to either human Her2/neu, human EGFR, or human CD71, which are cell-surface receptors on the xenograft tumor. Cetuximab was covalently conjugated with saponin SO1861. […] The dose of the ADCs was sub-optimal in the tumor model. That is to say, from previous experiments, it was established at which sub-optimal dose of the ADCs no tumor-regression or arrest of tumor growth would be observable.\nThe 2 target 2-components system (2T2C) is the combination treatment of mAb1-SO1861 and mAb2-protein toxin, (FIG. 1B-D).", "data": [{"substance": "Cetuximab: monoclonal antibody recognizing and binding human EGFR", "values": [{"measurement": "tumor response (in words)", "result": "only tumor growth inhibition, but no regression"}]}]}
